Compound potency records, mixed from different reports. Data source: NIAID ChemDB in PubChem.

All rows: whole-cell or culture tests; organism: Mycobacterium tuberculosis

Rows are shuffled and stem from different studies. Inhibition is in % at the dose shown (toxicity tests: loss of growth or viability). a–b is a range or a potency band. A number after MIC or MFC names an inhibition level or a share of isolates. ECn: concentration that inhibits the pathogen or its effect by n%. An empty or dashed field is not shown. MIC bound comes from a single tested concentration.

smiles	cells	method	conditions	read-out	strain or isolate	tested at	mutations	value
Cc1c(C(F)(F)F)cc2nc(C3=N[C@H](C(=O)N4CCCC4)CO3)sc2c1[N+](=O)[O-]		resazurin / absorbance		MIC80	H37Rv			2 µg/mL
O=c1cc2oc3cc(O)c(O)cc3c(-c3ccccc3)c-2cc1O		broth dilution		MIC90	H37Rv			200 µg/mL
O=C1C(=Cc2ccc([N+](=O)[O-])o2)C(=O)N(CCc2ccccc2)S(=O)(=O)N1CCc1ccccc1		BACTEC		inhibition	H37Rv	12.5 µg/mL		88%
CC(=O)c1cccc(NC(=O)/C=C/c2ccc([N+](=O)[O-])cc2)c1		visual reading		MIC	Clinical isolate			16 µg/mL
CNC(=O)c1c(-c2ccccc2)oc2ccc(O)c(CCCNCc3nonc3C)c12		resazurin / fluorescence		MIC	mc(^2)7000			>40 µM
O=C(Oc1ccc(Br)cc1C(=O)Nc1ccc(C(F)(F)F)cc1)c1cnccn1			21 d	MIC	multidrug resistant 53/2009			1 µM
Cc1nccc2c1[nH]c1cc(OC(=O)C(C)C)ccc12				inhibition	H37Rv	6.25 µg/mL		36%
CCC(C)C(N)C(=O)O		resazurin / visual reading		MIC	H37Ra			>100 µg/mL
O=C(O)c1cc(O)cc(O)c1N=Nc1ccc(/C=C/c2ccc(N=Nc3c(O)cc(O)cc3C(=O)O)cc2S(=O)(=O)O)c(S(=O)(=O)O)c1		BACTEC		MIC bound	H37Rv			>12.5 µg/mL
Cc1nccc2c1[nH]c1cc(OC(=O)c3ccccc3)ccc12				EC50	H37Rv			>6.25 µg/mL
CN(C)c1ccc(-n2c(=O)oc3ccccc3c2=O)cc1				MIC	My 331/88			>125 µM
CCOC(=O)c1c(-c2ccc(O)cc2)oc2cc(O)cc(CN3CCCCC3)c12		resazurin / fluorescence		MIC	mc(^2)7000			1 µM
CC(C)(O)[C@H]1CC[C@@]2(C)C1C[C@H](O)[C@]1(C)C2CCC2[C@@]3(C)CC[C@H](O)C(C)(C)C3CC[C@]21C				MIC				>50 µg/mL
NNc1n[nH]c(=O)n1N		BACTEC		inhibition	H37Rv	12.5 µg/mL		11%
O=C(/C=C/c1ccco1)Nc1ccc(-c2nc3ccccc3[nH]2)cc1		visual reading		MIC	H37Rv			>16 µg/mL
OC(c1ccc(F)cc1)(c1cccs1)C1CC1				MIC bound	H37Rv			>6.25 µg/mL
Cc1c(F)c(N2CCNC(C)C2)cc2c1c(=O)c(C(=O)O)cn2C1CC1				MIC90				0.78 µg/mL
CN(C)/N=C(\N)c1nnn(C)n1		BACTEC		MIC	H37Rv			≥12.5 µg/mL
CCN(CC)CCOC(=O)c1ccc2cccnc2c1O				MIC50	M 607			>25 µg/mL
COc1ccc(-n2c(=O)oc3ccccc3c2=O)cc1				MIC	My 331/88			125 µM
O=C(NC(=O)c1ccc(Cl)cc1)Nc1ccc(Cl)cc1C(F)(F)F		BACTEC		MIC bound	H37Rv			>12.5 µg/mL
NNC(=O)c1ccncc1			7 d	MIC	6509/96			2 µM
Nc1ccccc1C(=O)Nc1ccc(F)cc1				MIC	My 331/88			>500 µM
CCCCCCCCCCC(C(=O)O)S(=O)(=O)c1ccc(Cl)cc1				MIC	H37Rv			0.1 µg/mL
O=C(NNCc1ccccc1)c1ccccn1		BACTEC		MIC bound	H37Rv			≤12.5 µg/mL
Cc1cc(=O)[nH]c2ccccc12				MIC50	H37Rv			>10 µg/mL
Cc1ccc(CNC(=S)c2ccc([N+](=O)[O-])cc2O)cc1				MIC	My 331/88			32 µg/mL
O=c1[nH]c2ccccc2c(=O)n1-c1ccc(Cl)c(Cl)c1				MIC	My 331/88			>250 µM
O=C(O)Cc1ccc(O)c2ncccc12				MIC50	M 607			0.5 µg/mL
CC(=O)C1=C(C(=O)O)[NH+]([O-])C2C=CC=CC2[NH+]1[O-]		BACTEC		MIC bound	H37Rv			≤12.5 µg/mL
NC(=O)c1cnccn1				MBC	KK11-20			>200 µg/mL
Nc1ncnc2nc(SCC(=O)Nc3cccc(Cl)c3)[nH]c12				EC50	H37Rv			9 µM
CC1(C)S[C@@H]2[C@H](NC(=O)[C@H](N)c3ccccc3)C(=O)N2[C@H]1C(=O)O				MIC90				>92 µM
Cc1cc(Nc2cccc(Cl)c2)nc(-n2nc(C)cc2C)n1				EC50	H37Rv			24 µM
CCc1cc(C(N)=S)ccn1		visual reading		MIC	H37Rv			5 µg/mL
O=C(Nc1cccc([N+](=O)[O-])c1)c1ccccc1O				MIC	My 331/88			16 µM
CCC(/C(=N/Nc1c(Cl)cc(Cl)cc1Cl)c1ccccc1)n1ccnc1C		resazurin		inhibition	H37Rv	6.25 µg/mL		38%
CCCCCCCCCCC(Oc1ccccc1Cl)C(=O)O				MIC	H37Rv			1 µg/mL
CC(C)(C)c1ccc(CNC(=O)c2ccccc2O)cc1				MIC	My 331/88			16 µg/mL
COc1cc(O)c2c(=O)c(OC)c(-c3ccc(O)cc3)oc2c1		BACTEC		inhibition	H37Rv	100 µg/mL		48%
O=[N+]([O-])c1cc(C(F)(F)F)cc2nc(C3=NCCO3)sc12		resazurin / absorbance		MIC80	H37Rv		Overexpressing Rv3790 (DprE1)	>32 µg/mL
O=C1N[C@@H]2C(=C[C@H](O)[C@@H](O)[C@H]2O)c2cc3c(c(O)c21)OCO3		BACTEC		inhibition	H37Rv	12.5 µg/mL		4%
O=C(COc1cccc2cnccc12)NCc1ccccc1Br				EC50	H37Rv			0.49 µM
O=C(Nc1ccc([N+](=O)[O-])cc1)c1ccccc1O				MIC	My 331/88			8 µM
CNC(=O)c1c(-c2ccccc2)oc2cc(OCC(=O)OC)cc(CN3CCCCC3)c12		resazurin / fluorescence		MIC16	mc(^2)7000			40 µM
Cc1ccc(NCCNCC(O)CO)c2c(=O)c3ccccc3sc12		BACTEC		MIC	H37Rv			6.25 µg/mL
C[n+]1cc2c(cn3c4ccccc4ccc23)c2ccccc21		resazurin / visual reading		MIC	H37Rv			6.2 µg/mL
O=C([C@@H]1COC(c2nc3cc(C(F)(F)F)cc([N+](=O)[O-])c3s2)=N1)N1CCCC1		resazurin / absorbance		MIC80	H37Rv			1 µg/mL
CC(=O)O[C@H]1CC[C@@]2(C)C(CC[C@]3(C)C2CCC2[C@@]4(C)CC[C@H](C(C)(C)O)C4C[C@H](OC(C)=O)[C@]23C)C1(C)C				MIC				>50 µg/mL
O=C(Oc1cc(Cl)ccc1C(=O)Nc1ccc(F)cc1)c1cnccn1			21 d	MIC	H37Rv 331/88			8 µM
Cc1ccc(N=Cc2ccc([N+](=O)[O-])s2)cc1[N+](=O)[O-]		visual reading		MIC	H37Rv			8 µg/mL
Cc1ccc(/C=C(\C(N)=S)c2nc3cccnc3n2C)c(C)c1				MIC	109			31.2 µg/mL
CCOC(=O)c1c(-c2ccccc2)oc2ccc(O)c(CCN3CCCC(O)C3)c12		resazurin / fluorescence		MIC	mc(^2)7000			>20 µM
CCCCc1ccc(NC(=S)c2cccc(Br)c2)cc1				MIC	My 331/88			32 µM
CC/C(=C(/CC)c1ccc(OCC(=O)N/N=C2/C=C3CCC4C(CCC5(C)C(O)CCC45)C3(C)CC2)cc1)c1ccc(OCC(=O)N/N=C2/C=C3CCC4C(CCC5(C)C(O)CCC45)C3(C)CC2)cc1		BACTEC		inhibition	H37Rv	12.5 µg/mL		-15%
Cc1nccc2c1[nH]c1cc(OC(=O)/C=C/c3ccccc3)ccc12				inhibition	H37Rv	6.25 µg/mL		26%
CCCCCCCCCCCCCCC(Oc1cccc(C)c1)C(=O)O				MIC	H37Rv			10 µg/mL
O=C(O)CCc1ccc(O)c2ncccc12				MIC50	M 607			1–5 µg/mL
Cc1ccc(/C=C(\C(N)=S)c2nc3ncccc3n2C)c(C)c1				MIC	109			31.2 µg/mL
CN(C)c1ccc(/C=c2\s/c(=C/C(=O)c3ccccc3)[nH]c2=O)cc1		visual reading		MIC	H37Rv			8 µg/mL
O=C(Oc1ccc(Cl)cc1C(=O)Nc1cccc(C(F)(F)F)c1)c1cnccn1			14 d	MIC	multidrug resistant 7357/1998			0.5 µM
Cc1cc(NS(=O)(=O)c2ccc(Nc3ccnc4cc(Cl)ccc34)cc2)no1		BACTEC		MIC bound	H37Rv			>12.5 µg/mL
Nc1ccccc1C(=O)Nc1ccc(Br)cc1				MIC	My 331/88			125 µM
C[n+]1cc2c(cn3c4ccccc4ccc23)c2ccccc21.[I-]		resazurin / visual reading		MIC	H37Rv		Ethionamide-resistant	6.2 µg/mL
Oc1cc(Br)ccc1C(=S)NCc1ccc(Br)cc1				MIC	My 331/88			1 µg/mL
CN1/C(=C/C(=O)NN)N(C)c2ncccc21				MIC	109			250 µg/mL
CCOC(=O)c1c(-c2ccccc2)oc2ccc(O)c(CCCCN3CCC3)c12		resazurin / fluorescence		MIC	mc(^2)7000			<0.08 µM
Cc1ccc2cccc(O)c2n1				MIC50	M 607			>25 µg/mL
CC(C)(C)OCOC(=O)c1cnccn1				MBC	KK11-20			25 µg/mL
CCCCCCCCCCCCCCC(Oc1ccc(Cl)c(Cl)c1)C(=O)O				MIC	H37Rv			1 µg/mL
CNC(=O)c1c(-c2cccc(OC)c2)oc2cc(OC)cc(CN3CCCCC3)c12		resazurin / fluorescence		MIC	mc(^2)7000			>20 µM
Cc1cccc(C(=S)Nc2ccc(C(C)C)cc2)c1				MIC	My 331/88			32 µM
CCCCCCCSC(=S)NC1c2ccccc2Oc2ccccc21		BACTEC		MIC bound	H37Rv			≤128 µg/mL
CCCCc1ccc(NC(=S)c2cccc(OC)c2)cc1				MIC	My 331/88			32 µM
Cc1ccc(C(=O)N=Nc2c(Cl)c(O)c3ccccc3c2O)cc1	VERO	BACTEC		MIC	H37Rv			6.25 µg/mL
Oc1cc(Br)cc(Br)c1C(=S)NCc1ccc(C(F)(F)F)cc1				MIC	My 331/88			32 µg/mL
CC(=O)Nc1ccc2nc(/C=C/c3ccc(N(C)C)cc3)c(=O)oc2c1		BACTEC		inhibition	H37Rv	12.5 µg/mL		34%
CCCC(=O)Oc1ccc2c(c1)[nH]c1c(C)nccc12				EC50	H37Rv			>6.25 µg/mL
O=C(NCc1ccccc1)Nc1nc(-c2ccccc2)c(-c2ccccc2)nc1C(=O)NCc1ccccc1		BACTEC		MIC	H37Rv			≥12.5 µg/mL
COc1cccc(C(=S)Nc2ccc(C(C)C)cc2)c1				MIC	My 331/88			62.5 µM
CN(C(=S)NNC(=O)C1CCC(=O)N1)c1ccccc1		BACTEC		inhibition	H37Rv	12.5 µg/mL		10%
CCCCc1ccc(NC(=S)c2ccccc2)cc1				MIC	My 331/88			32 µM
Oc1cc(Cl)ccc1Oc1ccc(Cl)cc1Cl		visual reading		MIC	H37Rv			10 µg/mL
O=C(Oc1cc(Cl)ccc1C(=O)Nc1ccc(C(F)(F)F)cc1)c1cnccn1			21 d	MIC	multidrug resistant 234/2005			0.5 µM
COc1ccc(CSC(=S)Nc2ccc(SC)c(Cl)c2)cc1		BACTEC		MIC	H37Rv			128 µg/mL
COCCNc1nc2c(c(=O)n(Cc3ccc(Cl)c(Cl)c3)c(=O)n2C)n1C				EC50	H37Rv			17 µM
CCOP(=O)(OCC)C(NC(=O)OCC(Cl)(Cl)Cl)n1nnc(C(=O)OC)c1C(=O)OC		resazurin		MIC bound	H37Rv			>6.25 µg/mL
Nc1ccccc1C(=O)Nc1cccc([N+](=O)[O-])c1				MIC	My 331/88			500 µM
CC(C(=O)NN)c1nc2ncccc2[nH]1				MIC	109			125 µg/mL